This data set addresses LuxR (Vibrio campbellii BB120) (UniProt P21308). Nature of the data set: EMSA. Conditions: DMSO.

The chains behind the UniProt entries cited, without tags or fusion partners. Where a name states a change or a piece, a line headed by the entry shows the natural chain unless it says otherwise.
UniProt P21308: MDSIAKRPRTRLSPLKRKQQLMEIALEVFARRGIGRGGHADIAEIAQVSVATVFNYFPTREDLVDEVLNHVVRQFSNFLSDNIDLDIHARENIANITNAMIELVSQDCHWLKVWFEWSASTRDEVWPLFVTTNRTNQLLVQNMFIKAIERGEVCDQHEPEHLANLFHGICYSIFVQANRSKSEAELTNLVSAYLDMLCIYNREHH

Construct, isoform or probe ends are uncertain for at least one entry. At least one verdict rests on a figure or table, not on a statement of the authors.

In the case of “TTACTTATTTATAGTGTTACAAATAACATTA (double strand) [luxC promoter site B (JDN54/JDN55)]”, the binding result is recorded as “binds”.

(Values after article doi:10.1101/2021.04.14.439868.)
